Compound potency records, mixed from different reports. Data source: NIAID ChemDB in PubChem.

Shared fields: tests in culture; organism: Parainfluenza virus; measure: EC50

a–b is a range or a potency band. ECn: concentration that inhibits the pathogen or its effect by n%. An empty or dashed field is not shown. Rows are shuffled and stem from different studies.

structure	strain or isolate	cell line	method	value
C#Cc1c(C(N)=O)ncn1[C@@H]1O[C@H](CO)[C@@H](O)[C@H]1O	TYPE 3/C243	VERO	plaque count	1.16 µg/mL
Nc1nc2c(ncn2C[C@H]2CC[C@@H](CO)C2)c(=O)[nH]1	TYPE 3	VERO	cytopathic effect	>200 µg/mL
Clc1cc2nc[nH]c2cc1Cl	TYPE 3	HeLa	cytopathic effect	>10 µg/mL
C/C=C/Cc1cn([C@@H]2O[C@H](CO)[C@@H](O)[C@H]2O)c2ncnc(N)c12	TYPE 3	VERO	cytopathic effect	1 µg/mL
NC(=O)c1csc([C@@H]2O[C@H](CO)[C@@H](O)[C@H]2O)n1	TYPE 3/C243	VERO	cytopathic effect	150 µg/mL
Nc1ncnc2c1c(Br)cn2[C@@H]1O[C@H](CO)[C@@H](O)[C@H]1O	TYPE 3	VERO	cytopathic effect	0.07 µg/mL
C#Cc1c(C(N)=O)ncn1[C@@H]1O[C@H](CO)[C@@H](O)[C@H]1O	TYPE 3/HA-1 C243	VERO	plaque count	0.58 µg/mL
Nc1nc(Cl)c2ncn(C[C@H]3CC[C@@H](CO)C3)c2n1	TYPE 3	VERO	cytopathic effect	>40 µg/mL
CCN1C[C@]2(COC)CC[C@H](OC)[C@]34C5CC6[C@H](OC)C5[C@](O)(C[C@@H]6OC)[C@@](O)(C13)[C@@H](OC)[C@H]24	TYPE 3	VERO	cytopathic effect	1–32 µg/mL
Nc1nccc2c1ncn2[C@@H]1C[C@H](CO)[C@@H](O)[C@H]1O	TYPE 3	VERO	cytopathic effect	0.2 µg/mL
Nc1nccc2c1ncn2[C@@H]1O[C@H](CO)[C@@H](O)[C@H]1O	TYPE 3	VERO	cytopathic effect	2 µg/mL
Nc1nc2c(ncn2COCOCP(=O)(O)O)c(=O)[nH]1	SF (TYPE 5)		neutral red	>100 µg/mL
OCCOC(CCO)n1cnc2cc(Cl)c(Cl)cc21	TYPE 3	HeLa	cytopathic effect	>100 µg/mL
Nc1ncnc2c1ccn2[C@@H]1C[C@H](CO)[C@@H](O)[C@H]1O	TYPE 3	VERO	cytopathic effect	2 µg/mL
CC(C)[Si]1(C(C)C)OC[C@H]2O[C@@H](n3cnc4cc(Cl)c(Cl)cc43)[C@@H](O)[C@H]2O[Si](C(C)C)(C(C)C)O1	TYPE 3	HeLa	cytopathic effect	>10 µg/mL
CCN1C[C@]2(COC)CC[C@H](OC)[C@]34C1[C@@](O)([C@@H](OC)[C@H]23)[C@@]1(O)C[C@H](OC)C2C[C@@H]4[C@@H]1[C@H]2OC(C)=O	TYPE 3	VERO	cytopathic effect	1–32 µg/mL
OCCOC([C@H](O)CO)n1cnc2cc(Cl)c(Cl)cc21	TYPE 3	HeLa	cytopathic effect	>200 µg/mL
Nc1nc(Cl)c2nnn(C[C@H]3CC[C@@H](CO)C3)c2n1	TYPE 3	VERO	cytopathic effect	>200 µg/mL

2 of the rows above, restated:

| structure | strain or isolate | cell line | method | value |
|---|---|---|---|---|
| Nc1nc(Cl)c2ncn(C[C@H]3CC[C@@H](CO)C3)c2n1 | TYPE 3 | VERO | cytopathic effect | >40 µg/mL |
| Nc1nc2c(ncn2COCOCP(=O)(O)O)c(=O)[nH]1 | SF (TYPE 5) |  | neutral red | >100 µg/mL |